This is an account of results in US20040116385A1, “Treating and preventing viral infections with porphyrin-based compounds” (priority 2002, published 2004).

One data set has as its system Rat 9L tumor cells. Put plainly: Intracellular localization by confocal fluorescence microscopy, 9L cells. Conditions: 2 μM, 6 or 24 hours. Format: cell-based.
In data set [1] the test system is human normal keratinocyte line HaCaT. Put plainly: Intracellular localization by confocal fluorescence microscopy, HaCaT cells. The note with it: 2 μM, 6 or 24 hours. Format: cell-based.

“meso-tetra[4-(1-methyl-nido-arboranyl)methylphenyl]porphyrin tetrapotassium salt [Compound 4]”: in the data set with Rat 9L tumor cells, the “cells labeled (intracellular fluorescence)” value is 100% and the “intracellular localization of fluorescence” value is reported as “predominantly perinuclear”. Besides, in data set [1], the “cells labeled (intracellular fluorescence)” value came to 100% and the “intracellular localization of fluorescence” value is “predominantly perinuclear”.
